Laboratory results from PMC9603901 (Microbiology Spectrum, 2022).
Some peptides are written in HELM: one residue between dots, names in brackets for other building blocks, links after the first $.

Experiment: peptide synthesis
Conditions: whole synthesis, 214 nm

With “PEPTIDE1{F.K.F.L.A.R.T.G.K.F.L.[am]}$$$$V2.0” the “final HPLC purity” value was 99.7% purity.
